## Results of single-concentration screens

From ChEMBL document CHEMBL3988442, “University of Dundee, Small-Polar-MMV Screening Library” (2021).

Values are the deposited “Percent Effect”, in %.
The record does not define 0% and 100%; most values in the screen are far below 50% and negative numbers occur (in some assays of this library far below -100).
The entries come from a sample that favours strong results.

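Growth of Mycobacterium tuberculosis over 4 days (cholesterol / DPPC medium with tyloxapol); the read-out is not stated. Concentration: 500 µM. Higher reads as more growth inhibition (inferred: compounds with an IC50 in retests scored well above the rest). Of about 18,000 compounds tested this way, about 900 (5%) reached 50% or more in at least one test.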

compound | effect
COC(=O)c1cn(C)nc1C | -13.02%
Cc1nn(C)c(C)c1CC(=O)N1CCCC(C(N)=O)C1 (configuration not stated) | -10.57%
Cc1cc(Br)oc1C(=O)Nc1ncccc1O | 75.41%
O=C(C1CCCC1)N1CCN(C(=O)C2CCCO2)CC1 (configuration not stated) | 2.994%
Cc1nn(CC(=O)N(C)C)c(=O)c2ccccc12 | 53.67%
CCC(CO)Nc1ncc(C(F)(F)F)cc1Cl (configuration not stated) | 63.31%
O=C(NCCOCc1ccc(Cl)cc1)C1CNCCO1 (configuration not stated) | 27.05%
Cc1nc[nH]c1C(=O)NCC1CCN(CC(C)C)C1 (configuration not stated) | 4.923%
O=C(CCc1cccnc1)NCCN1CCNC1=O | -17.71%
COCCN1CCCC1C(=O)Nc1ccccc1 (configuration not stated) | 9.908%
c1ccc2c(N3CCNCC3)cncc2c1 | 77.68%
COC(C(=O)NCC1(C)COC1)c1ccccc1 (configuration not stated) | -3.658%
CC(C)(C)NC(=O)CNc1c(F)cc(C#N)cc1F | 19.72%
CN(C)CCOc1ccc(C#N)cc1 | 14.54%
CSc1ncccc1C(=O)N1CCC(CS(N)(=O)=O)C1 (configuration not stated) | 4.495%
COC(=O)c1ccc(CSc2nnc(N)[nH]2)cc1 | 38.03%
CSCC(CCO)NC(=O)c1cc(F)ccc1O (configuration not stated) | -6.077%
COC[C@@H](O)CNC1CCOc2c(Br)cccc21 (some centres not stated) | 40.06%
CCO[C@H]1CN(Cc2csc(C(C)=O)c2)C[C@@H]1O | 17.03%
CCOCC(O)CSc1nccn1-c1cccc(F)c1 (configuration not stated) | 59.79%
CC1(C)C(C(=O)N2CCC(N)C2)C1(C)C (configuration not stated) | -12.65%
COc1ccc(C(=O)NC2(C#N)CCOCC2)cc1Br | 6.3%
CCN1CCN(CC2CCNCC2)CC1 | -4.38%
COC(=O)CN1CCN(c2ccccc2O)CC1 | -2.877%
COCCCOc1ccc(C)cc1S(=O)(=O)N(C)C | 10.76%
CS(=O)(=O)N1CCC(COCc2ccccc2)C1 (configuration not stated) | 15.67%
Cc1ccc(C(C)C)c(OCC(O)CNCCO)c1 (configuration not stated) | 77.78%
Brc1cc2c(cc1CN1CCCNCC1)OCO2 | 64.29%
CCOC(=O)N1CCC(NC(CO)c2ccco2)CC1 (configuration not stated) | 1.097%
CC(O)CNCCNCc1ccc(-c2ccccc2)o1 (configuration not stated) | 48.27%
O=C(Nc1cccc(-n2cnnn2)c1)C1CCCO1 (configuration not stated) | 4.515%
CC1CCN(S(=O)(=O)NC(C)C(C)C)CC1 (configuration not stated) | 57.76%
O=C(NCCCn1ncc2ccccc21)C1CC1 | 60.62%
CN(C)C(=O)CN1CCCC1c1ccsc1 (configuration not stated) | -4.747%
Nc1nc(N2CCCNC(=O)C2)cc([C@H]2C[C@@H](O)C2)n1 | 10.71%
C=C(C)CCOC(=O)c1cc(C(N)=O)cs1 | 80.28%
NCCCOc1ncc(C(F)(F)F)cc1Cl | 60.63%
COC1CCN(CC(=O)N2CCCCC2)CC1 | 5.932%
Cc1csc(C(C)CNC(=O)Nc2ncnn2C)n1 (configuration not stated) | -3.63%
COc1ccccc1C(=O)NCC(=O)NCC(F)(F)F | -4.611%
CSCC[C@H](N)C(=O)N1CCOC2(CCC2)C1 | -11.53%
O=C1NCCCc2[nH]c(Cc3ccncc3)nc21 | -25.04%
NCc1cccc2occc12 | 1.995%
COCCN1CCC(CNc2cccc(C)n2)C1 (configuration not stated) | 13.73%
CN(C)c1ncc(CNC(=O)C2CC2)n1C | 19.35%
CN1N=C(C(=O)NCc2csc(Br)c2)CCC1=O | 74.24%
CN(CC(F)(F)F)C(=O)CN1CCC[C@H]1CO | -19.65%
Cc1c(C(=O)NC[C@H]2CCCN2)n(C)c2ccccc12 | 51.09%
Cc1cc(C)n2c(SCCC(N)=O)nnc2n1 | -14.6%
NCCNc1nccc(C(F)(F)F)n1 | 4.024%
CNC(=O)CCc1cnn(-c2ccccc2)c1 | -4.818%
CC(C)NS(=O)(=O)C1CCNC1 (configuration not stated) | -1.355%
COc1ccc(OCCN2CCC(C(N)=O)CC2)cc1 | -2.766%
Cc1ccc(NCc2cccc(O)c2)cc1S(C)(=O)=O | 68.26%
Cc1ccc2oc(CNC(C)(CO)CO)cc2c1 | 6.262%
O=C(NCCn1cccc1)c1[nH]nc2c1CCCC2 | 53.15%
O=C(c1ccc(CN2CCSCC2)cc1)N1CCCC1 | 11.3%
N#Cc1cccnc1N[C@@H]1CCOC[C@H]1OCC1CC1 | -3.846%
COC(=O)[C@H](C)NC(=O)C1(c2ccccc2F)CC1 | 61.14%
O=C(CCn1cccn1)N1CCN(c2nccs2)CC1 | 10.26%
COCc1nn(CCn2cc(Br)cn2)c(=O)o1 | 45.38%
Cn1cc(NC(=O)NCCc2nccs2)cn1 | 6.164%
CN1CC2(CCCN(CCn3cc(Cl)cn3)C2)OC1=O (configuration not stated) | 2.696%
CN1CCCN(C(=O)COc2ccccc2)CC1 | 4.241%
CCOc1cc(C(=O)NCc2ccc(C)n2C)ccn1 | 16.78%
COC(=O)C(C)OC(=O)c1cccnc1SC (configuration not stated) | 26.49%
COC(CN)C(C)(C)C (configuration not stated) | -11.27%
Cc1ccc(C2CC(=O)NC(SCC(N)=O)=C2C#N)o1 (configuration not stated) | 29%
CC(CO)(NC(=O)c1c(O)cccc1F)C1CC1 (configuration not stated) | -16.27%
COCCNC(=O)c1cccc(NC(=O)C(C)(C)C)c1 | -1.023%
Cc1nn(C)c(C)c1CN1CC(C)C1 | -1.582%
COc1cccc(CCN)n1 | 53.42%
CC(C)c1ccoc1C(=O)N(C)c1cc(C#N)ccn1 | 50.76%

Some entries from above, unchanged:

{"compound": "NCc1cccc2occc12", "effect": 1.995}
{"compound": "O=C(NCCCn1ncc2ccccc21)C1CC1", "effect": 60.62}
{"compound": "NCCCOc1ncc(C(F)(F)F)cc1Cl", "effect": 60.63}
{"compound": "CCC(CO)Nc1ncc(C(F)(F)F)cc1Cl", "stereo": "configuration not stated", "effect": 63.31}